{"source": "PubChem BioAssay AID1259414 (Drosophila RNAi Screening Center, 2018)", "assay": "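Fly genes that alter Wolbachia amount inside host cells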 (primary screen)", "system": "Drosophila JW18 cells infected with Wolbachia", "reagent": "long dsRNA against Drosophila genes, 0.25 µg dsRNA per well of a 384-well plate", "timing": "5 days", "challenge": "cells persistently infected with Wolbachia before knock-down; no added drug", "measurement": "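Imaged fluorescence in situ signal for Wolbachia 23S rRNA per DAPI-counted host cell, given as a robust z-score within each plate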", "reading the numbers": "Wolbachia per cell robust z: higher = more Wolbachia per host cell than the plate typical", "call rule": "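Active if absolute robust z reaches 1.5 in two or more of three replicates, leaving out multi- or no-target dsRNAs, genes unexpressed in JW18 and A1 wells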", "note": "The screen tested about 24,000 reagents; shown is an unselected part of those with a known target gene and a result. In the full data, about 1,210 (5%) got an active call. 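Inactive calls also include excluded dsRNAs with several or no targets, genes unexpressed in JW18, and well A1, regardless of score.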 A number with no mark means an inactive call. No sequences are given here."}
{"gene knocked down": "CG9812 (GeneID 37709)", "amplicon": "DRSC04566", "Wolbachia per cell robust z, rep 1": 0.144, "Wolbachia per cell robust z, rep 2": -0.869, "Wolbachia per cell robust z, rep 3": -0.696}
{"gene knocked down": "CG13313 (GeneID 39022)", "amplicon": "DRSC09984", "Wolbachia per cell robust z, rep 1": -0.884, "Wolbachia per cell robust z, rep 2": 1.18, "Wolbachia per cell robust z, rep 3": -2.84}
{"gene knocked down": "CG13313 (GeneID 39022)", "amplicon": "DRSC28463", "Wolbachia per cell robust z, rep 1": 0.0707, "Wolbachia per cell robust z, rep 2": 0.268, "Wolbachia per cell robust z, rep 3": -0.783}
{"gene knocked down": "mtTFB2 (GeneID 41228)", "amplicon": "DRSC15519", "Wolbachia per cell robust z, rep 1": 0.173, "Wolbachia per cell robust z, rep 2": 0.476, "Wolbachia per cell robust z, rep 3": -0.469}
{"gene knocked down": "Mdh1 (GeneID 34414)", "amplicon": "DRSC02846", "Wolbachia per cell robust z, rep 1": 1.01, "Wolbachia per cell robust z, rep 2": 0.329, "Wolbachia per cell robust z, rep 3": 0.872}
{"gene knocked down": "NitFhit (GeneID 38029)", "amplicon": "DRSC08680", "Wolbachia per cell robust z, rep 1": -0.972, "Wolbachia per cell robust z, rep 2": -0.897, "Wolbachia per cell robust z, rep 3": -2.82}
{"gene knocked down": "NitFhit (GeneID 38029)", "amplicon": "DRSC28018", "Wolbachia per cell robust z, rep 1": -0.983, "Wolbachia per cell robust z, rep 2": 0.243, "Wolbachia per cell robust z, rep 3": -2.14}
{"gene knocked down": "NitFhit (GeneID 38029)", "amplicon": "DRSC41565", "Wolbachia per cell robust z, rep 1": -1.19, "Wolbachia per cell robust z, rep 2": -0.507, "Wolbachia per cell robust z, rep 3": -2.91}
{"gene knocked down": "Vha16-1 (GeneID 44307)", "amplicon": "DRSC05020", "Wolbachia per cell robust z, rep 1": 0.555, "Wolbachia per cell robust z, rep 2": 1.95, "Wolbachia per cell robust z, rep 3": -4.99}
{"gene knocked down": "CG4582 (GeneID 43086)", "amplicon": "DRSC15605", "Wolbachia per cell robust z, rep 1": -1.35, "Wolbachia per cell robust z, rep 2": -0.00106, "Wolbachia per cell robust z, rep 3": 0.0171}
{"gene knocked down": "Ypel (GeneID 31949)", "amplicon": "DRSC17996", "Wolbachia per cell robust z, rep 1": 1.47, "Wolbachia per cell robust z, rep 2": 1.28, "Wolbachia per cell robust z, rep 3": 1.2}
{"gene knocked down": "Ypel (GeneID 31949)", "amplicon": "DRSC26440", "Wolbachia per cell robust z, rep 1": 0.886, "Wolbachia per cell robust z, rep 2": 1.5, "Wolbachia per cell robust z, rep 3": -5.88}
{"gene knocked down": "CG17717 (GeneID 31592)", "amplicon": "DRSC18130", "Wolbachia per cell robust z, rep 1": 0.235, "Wolbachia per cell robust z, rep 2": 0.391, "Wolbachia per cell robust z, rep 3": -0.213}
{"gene knocked down": "CycC (GeneID 41801)", "amplicon": "DRSC16619", "Wolbachia per cell robust z, rep 1": "2.29 (active)", "Wolbachia per cell robust z, rep 2": -0.114, "Wolbachia per cell robust z, rep 3": 2.7}
{"gene knocked down": "mRNA-cap (GeneID 32379)", "amplicon": "DRSC19789", "Wolbachia per cell robust z, rep 1": -2.72, "Wolbachia per cell robust z, rep 2": 1.73, "Wolbachia per cell robust z, rep 3": 0.406}
{"gene knocked down": "CG13046 (GeneID 39791)", "amplicon": "DRSC09927", "Wolbachia per cell robust z, rep 1": -2.16, "Wolbachia per cell robust z, rep 2": -0.237, "Wolbachia per cell robust z, rep 3": -0.464}

Already shown: entries from further up.
{"gene knocked down": "NitFhit (GeneID 38029)", "amplicon": "DRSC41565", "Wolbachia per cell robust z, rep 1": -1.19, "Wolbachia per cell robust z, rep 2": -0.507, "Wolbachia per cell robust z, rep 3": -2.91}
{"gene knocked down": "Vha16-1 (GeneID 44307)", "amplicon": "DRSC05020", "Wolbachia per cell robust z, rep 1": 0.555, "Wolbachia per cell robust z, rep 2": 1.95, "Wolbachia per cell robust z, rep 3": -4.99}
